# Tested on: mc^27000:Δc− strain with pYL60 or pYL3
structure (smiles),measurement,value
CN[C@@H]1[C@H](O)[C@H](NC)[C@H]2O[C@]3(O)[C@H](O[C@@H]2[C@H]1O)O[C@H](C)C[C@H]3NC(=O)Cc1ccc(Cl)cn1 [Spa],MIC50 higher for pYL60 strain than for empty vector (pYL3) strain,~4 fold

# Reference: publication PMC8092523 (Antimicrobial Agents and Chemotherapy, 2021)
